According to patent publication US6096502, “Substrate for detecting UL9 helicase activity” (Lee; Sam S.-K.):
Construct, isoform or probe ends are uncertain for at least one entry.

The chains behind the UniProt entries cited, without tags or fusion partners. Where a name states a change or a piece, a line headed by the entry shows the natural chain unless it says otherwise.
UniProt P10193: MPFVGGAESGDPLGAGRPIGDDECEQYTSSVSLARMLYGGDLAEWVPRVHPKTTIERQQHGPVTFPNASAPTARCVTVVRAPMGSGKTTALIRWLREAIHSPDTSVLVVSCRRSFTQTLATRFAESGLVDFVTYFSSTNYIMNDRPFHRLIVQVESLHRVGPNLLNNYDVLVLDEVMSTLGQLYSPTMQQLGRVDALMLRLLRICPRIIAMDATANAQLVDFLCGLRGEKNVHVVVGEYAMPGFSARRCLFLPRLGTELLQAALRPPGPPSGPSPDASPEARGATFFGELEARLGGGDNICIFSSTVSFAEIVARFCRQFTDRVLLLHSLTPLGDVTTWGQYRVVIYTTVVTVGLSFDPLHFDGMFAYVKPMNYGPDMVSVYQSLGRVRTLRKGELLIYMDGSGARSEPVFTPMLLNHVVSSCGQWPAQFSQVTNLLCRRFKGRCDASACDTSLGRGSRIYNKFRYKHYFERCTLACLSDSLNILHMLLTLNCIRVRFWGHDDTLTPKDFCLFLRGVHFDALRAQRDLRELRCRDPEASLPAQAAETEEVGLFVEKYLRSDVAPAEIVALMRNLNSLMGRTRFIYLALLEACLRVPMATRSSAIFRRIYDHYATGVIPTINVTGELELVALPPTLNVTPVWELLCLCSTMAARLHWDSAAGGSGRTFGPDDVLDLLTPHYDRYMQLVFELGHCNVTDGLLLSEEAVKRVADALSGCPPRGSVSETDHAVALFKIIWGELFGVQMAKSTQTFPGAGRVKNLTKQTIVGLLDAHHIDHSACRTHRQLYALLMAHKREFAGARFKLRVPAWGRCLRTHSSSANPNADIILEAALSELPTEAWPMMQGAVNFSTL

Molecular target: UL9 protein (origin-binding protein/helicase) (UniProt P10193)
Test: EMSA
Conditions: purified recombinant protein; label: 32P

AGCGTTCGCACTTCGTCC (double strand) [fully duplex Box I]
Kd: 0.3 nM
